In paper PMC7993833, “EDP-938, a novel nucleoprotein inhibitor of respiratory syncytial virus, demonstrates potent antiviral activities in vitro and in a non-human primate model” (PLoS Pathogens, 2021):

What follows are molecules tested on RSV-A Long (assay: In vitro resistance selection by viral passage). Settings: viral passage with increasing concentrations.
Format: cell-based, respiratory syncytial virus

Structure (SMILES) | concentration reached during selection of resistance mutants
O=C(NC1CC1)c1cc2c(s1)-c1ccccc1N(C(=O)c1ccc(NC(=O)c3cccnc3N3CCC4(CC3)COC4)cc1)CC2 [AZ-27] | 1,024 x EC50
O=C1Nc2ccccc2C(c2ccccc2)=N[C@@H]1Nc1nnc(-c2ncc(C(F)(F)F)cc2N2CCOCC2)o1 [EDP-938] | up to 64 x EC50
Cc1cn2nc([C@@H]3CCCCN3C(=O)c3cc(Cl)ccc3NS(C)(=O)=O)cc2nc1N1CC[C@H](N)C1 [GS-5806] | 16,384 x EC50
